Laboratory results as given in US20220089698A1, “ANTIBODIES THAT TARGET HIV GP120 AND METHODS OF USE” (published 2022).
Residue numbers refer to the chain shown, from its start.

B1: Antibody 1.1.64-1 (antibody, human IgG1, kappa)
heavy: QVQLLQSGAAVTKPGASVRVSCEASGYNIRDYFIHWWRQAPGQGLQWVGWINPKTGQPNNPRQFQGRVSLTRHASWDFDTFSFYMDLKALRSDDTAVYFCARQRSDYWDFDVWGSGTQVTVSSASTKGPSVFPLAPSSKSTSGGTAALGCLVKDYFPEPVTVSWNSGALTSGVHTFPAVLQSSGLYSLSSVVTVPSSSLGTQTYICNVNHKPSNTKVDKKVEPKSCDKTHTCPPCPAPELLAGPDVFLFPPKPKDTLMISRTPEVTCVVVDVSHEDPEVKFNWYVDGVEVHNAKTKPREEQYNSTYRVVSVLTVLHQDWLNGKEYKCKVSNKALPLPEEKTISKAKGQPREPQVYTLPPSREEMTKNQVSLTCLVKGFYPSDIAVEWESNGQPENNYKTTPPVLDSDGSFFLYSKLTVDKSRWQQGNVFSCSVLHEALHSHYTQKSLSLSPGK
light: not shown
B2: Antibody 2.2.1-1 (antibody, human IgG1, kappa)
heavy: B1 heavy with Q3H, L5S, N28K, Y32H, L90V, V97I
light: not shown
B3: Antibody 2.4.1-1 (antibody, human IgG1, kappa)
heavy: B1 heavy with Q3H, L5S, N28K, Y32H, W76F, L90V, V97I
light: not shown

Legend:
Assay in all cases: cell-based or functional assay
[1] = target: HIV-1 envelope glycoprotein (Env, gp120) of virus 8176 (HIV-1)
[2] = target: HIV-1 envelope glycoprotein (Env, gp120) of virus VS044 (HIV-1)
[3] = target: HIV-1 envelope glycoprotein (Env, gp120) of virus REJO (HIV-1)
[4] = target: HIV-1 envelope glycoprotein (Env, gp120) of virus VS043 (HIV-1)
[5] = target: HIV-1 envelope glycoprotein (Env, gp120) of virus 7467 (HIV-1)
[6] = target: HIV-1 envelope glycoprotein (Env, gp120) of virus THRO (HIV-1)
[7] = target: HIV-1 envelope glycoprotein (Env, gp120) of virus 8106 (HIV-1)
[8] = target: HIV-1 envelope glycoprotein (Env, gp120) of virus VS001 (HIV-1)
[9] = target: HIV-1 envelope glycoprotein (Env, gp120) of virus 7015 (HIV-1)
[10] = target: HIV-1 envelope glycoprotein (Env, gp120) of virus VS049 (HIV-1)
[11] = target: HIV-1 envelope glycoprotein (Env, gp120) of virus VS026 (HIV-1)
[12] = target: HIV-1 envelope glycoprotein (Env, gp120) of virus VS046 (HIV-1)
[13] = target: HIV-1 envelope glycoprotein (Env, gp120) of virus VS030 (HIV-1)
[14] = target: HIV-1 envelope glycoprotein (Env, gp120) of virus 7051 (HIV-1)
[15] = target: HIV-1 envelope glycoprotein (Env, gp120) of virus 1012 (HIV-1)
[16] = target: HIV-1 envelope glycoprotein (Env, gp120) of virus 8117 (HIV-1)
[17] = target: HIV-1 envelope glycoprotein (Env, gp120) of virus 92US712 (HIV-1)
[18] = target: HIV-1 envelope glycoprotein (Env, gp120) of virus 7103 (HIV-1)
[19] = target: HIV-1 envelope glycoprotein (Env, gp120) of virus 92HT593 (HIV-1)
[20] = target: HIV-1 envelope glycoprotein (Env, gp120) of virus 8134 (HIV-1)
[21] = target: HIV-1 envelope glycoprotein (Env, gp120) of virus VS042 (HIV-1)
[22] = target: HIV-1 envelope glycoprotein (Env, gp120) of virus 8320 (HIV-1)
[23] = target: HIV-1 envelope glycoprotein (Env, gp120) of virus VS004 (HIV-1)
[24] = target: HIV-1 envelope glycoprotein (Env, gp120) of virus 1489 (HIV-1)
[25] = target: HIV-1 envelope glycoprotein (Env, gp120) of virus 7141 (HIV-1)
[26] = target: HIV-1 envelope glycoprotein (Env, gp120) of virus 92US727 (HIV-1)
[27] = target: HIV-1 envelope glycoprotein (Env, gp120) of virus 7595 (HIV-1)
[28] = target: HIV-1 envelope glycoprotein (Env, gp120) of virus 1413 (HIV-1)
[29] = target: HIV-1 envelope glycoprotein (Env, gp120) of virus CHO77 (HIV-1)
[30] = target: HIV-1 envelope glycoprotein (Env, gp120) of virus VS017 (HIV-1)
[31] = target: HIV-1 envelope glycoprotein (Env, gp120) of virus 7576 (HIV-1)
[32] = target: HIV-1 envelope glycoprotein (Env, gp120) of virus 7552 (HIV-1)
[33] = target: HIV-1 envelope glycoprotein (Env, gp120) of virus 1003 (HIV-1)
[34] = target: HIV-1 envelope glycoprotein (Env, gp120) of virus 92US657 (HIV-1)
[35] = target: HIV-1 envelope glycoprotein (Env, gp120) of virus VS039 (HIV-1)
[36] = target: HIV-1 envelope glycoprotein (Env, gp120) of virus 8318 (HIV-1)
[37] = target: HIV-1 envelope glycoprotein (Env, gp120) of virus 302076 (HIV-1)
[38] = target: HIV-1 envelope glycoprotein (Env, gp120) of virus 8110 (HIV-1)
[39] = target: HIV-1 envelope glycoprotein (Env, gp120) of virus VS052 (HIV-1)

Row | Binder | Virus Neutralization Potency [1] | Virus Neutralization Potency [2] | Virus Neutralization Potency [3] | Virus Neutralization Potency [4] | Virus Neutralization Potency [5] | Virus Neutralization Potency [6] | Virus Neutralization Potency [7] | Virus Neutralization Potency [8] | Virus Neutralization Potency [9] | Virus Neutralization Potency [10] | Virus Neutralization Potency [11] | Virus Neutralization Potency [12] | Virus Neutralization Potency [13] | Virus Neutralization Potency [14] | Virus Neutralization Potency [15] | Virus Neutralization Potency [16] | Virus Neutralization Potency [17] | Virus Neutralization Potency [18] | Virus Neutralization Potency [19] | Virus Neutralization Potency [20] | also measured
1 | B1 | 0.66 µg/mL | 0.16 µg/mL | 0.02 µg/mL | 0.85 µg/mL | 0.06 µg/mL | 3.87 µg/mL | 3.31 µg/mL | 0.06 µg/mL | 0.65 µg/mL | 32.2 µg/mL | 0.17 µg/mL | 0.04 µg/mL | 2.6 µg/mL | 2.05 µg/mL | 1.41 µg/mL | 1.77 µg/mL | 0.06 µg/mL | 1.56 µg/mL | 0.37 µg/mL | 0.6 µg/mL | Virus Neutralization Potency [21]: 2.33 µg/mL; Virus Neutralization Potency [22]: 2.89 µg/mL; Virus Neutralization Potency [23]: 2.43 µg/mL; Virus Neutralization Potency [24]: 0.16 µg/mL; Virus Neutralization Potency [25]: 1.82 µg/mL; Virus Neutralization Potency [26]: 1.12 µg/mL; Virus Neutralization Potency [27]: 1.71 µg/mL; Virus Neutralization Potency [28]: 4.22 µg/mL; Virus Neutralization Potency [29]: 0.04 µg/mL; Virus Neutralization Potency [30]: 0.91 µg/mL; Virus Neutralization Potency [31]: 0.39 µg/mL; Virus Neutralization Potency [32]: > 80 µg/mL; Virus Neutralization Potency [33]: 2.97 µg/mL; Virus Neutralization Potency [34]: 0.42 µg/mL; Virus Neutralization Potency [35]: 0.09 µg/mL; Virus Neutralization Potency [36]: 0.33 µg/mL; Virus Neutralization Potency [37]: 0.08 µg/mL; Virus Neutralization Potency [38]: 6.74 µg/mL
2 | B2 | 0.3 µg/mL | 0.13 µg/mL | 0.01 µg/mL | 1.01 µg/mL | 0.03 µg/mL | 2.17 µg/mL | 2.46 µg/mL | 0.08 µg/mL | 0.47 µg/mL | 2.89 µg/mL | 0.13 µg/mL | 0.03 µg/mL | 2.51 µg/mL | 0.97 µg/mL | 3.7 µg/mL | 0.94 µg/mL | 0.05 µg/mL | 1.72 µg/mL | 0.17 µg/mL | 1.52 µg/mL | Virus Neutralization Potency [21]: 0.89 µg/mL; Virus Neutralization Potency [22]: 3.88 µg/mL; Virus Neutralization Potency [23]: 2.84 µg/mL; Virus Neutralization Potency [24]: 0.26 µg/mL; Virus Neutralization Potency [25]: 3.93 µg/mL; Virus Neutralization Potency [26]: 4.84 µg/mL; Virus Neutralization Potency [27]: 9.72 µg/mL; Virus Neutralization Potency [28]: 4.13 µg/mL; Virus Neutralization Potency [29]: 0.02 µg/mL; Virus Neutralization Potency [30]: 0.84 µg/mL; Virus Neutralization Potency [31]: 0.7 µg/mL; Virus Neutralization Potency [32]: 39.6 µg/mL; Virus Neutralization Potency [33]: 1.61 µg/mL; Virus Neutralization Potency [34]: 0.25 µg/mL; Virus Neutralization Potency [35]: 0.03 µg/mL; Virus Neutralization Potency [36]: 0.36 µg/mL; Virus Neutralization Potency [37]: 0.07 µg/mL; Virus Neutralization Potency [38]: 3.62 µg/mL; Virus Neutralization Potency [39]: 0.24 µg/mL
3 | B3 | 0.33 µg/mL | 0.25 µg/mL | 0.02 µg/mL | 1.16 µg/mL | 0.05 µg/mL | 4.17 µg/mL | 4.25 µg/mL | 0.18 µg/mL | 0.54 µg/mL | > 100 µg/mL | 0.27 µg/mL | 0.05 µg/mL | 5.2 µg/mL | 1.18 µg/mL | 3.38 µg/mL | 2.58 µg/mL | 0.07 µg/mL | 1.31 µg/mL | 0.37 µg/mL | 1.05 µg/mL | Virus Neutralization Potency [21]: 2 µg/mL; Virus Neutralization Potency [22]: 6.69 µg/mL; Virus Neutralization Potency [23]: 6.08 µg/mL; Virus Neutralization Potency [24]: 0.16 µg/mL; Virus Neutralization Potency [25]: 4.82 µg/mL; Virus Neutralization Potency [26]: 13.7 µg/mL; Virus Neutralization Potency [27]: 5.06 µg/mL; Virus Neutralization Potency [28]: 5.04 µg/mL; Virus Neutralization Potency [29]: 0.08 µg/mL; Virus Neutralization Potency [30]: 3.91 µg/mL; Virus Neutralization Potency [31]: 1.4 µg/mL; Virus Neutralization Potency [32]: 37 µg/mL; Virus Neutralization Potency [33]: 3.62 µg/mL; Virus Neutralization Potency [34]: 0.34 µg/mL; Virus Neutralization Potency [35]: 0.11 µg/mL; Virus Neutralization Potency [36]: 0.4 µg/mL; Virus Neutralization Potency [37]: 0.13 µg/mL; Virus Neutralization Potency [38]: 5.14 µg/mL; Virus Neutralization Potency [39]: 0.5 µg/mL
